Results of unrelated studies side by side (data: NIAID ChemDB).

All rows: growth or infection tests; species: Mycobacterium avium

Conditions beyond the fields shown may differ between rows. MIC50, MIC90 and the like: level of inhibition, or share of isolates inhibited.

CC1(C)Nc2ccccc2C(=S)N1c1ccc(Cl)c(Cl)c1 ; strain or isolate: MY330/88 ; endpoint: MIC ; result: >62.5 µg/mL
CC(=O)NC[C@H]1CN(c2ccc(N3CCSCC3)c(F)c2)C(=O)O1 ; endpoint: MIC ; result: 1 µg/mL
OCCN1CCN(CC/C=C2\c3ccccc3Sc3ccc(Cl)cc32)CC1 ; strain or isolate: T 10350 ; endpoint: MIC ; result: 25 µg/mL
Cc1ccc(NC(=O)CCC(=O)Nc2ccc(C)c(C)c2)cc1C ; endpoint: MIC ; result: >1000 µM
CCCCc1ccc(NC(=S)c2cccc(Cl)c2)cc1 ; strain or isolate: MY330/88 ; endpoint: MIC ; result: 62.5 µM
O=C(CCC(=O)Nc1ccc(F)cc1)Nc1ccc(F)cc1 ; endpoint: MIC ; result: 1000 µM
Fc1ccc(C(Cn2ccnc2)OC/C=C/c2ccccc2)cc1 ; strain or isolate: 103317 ; endpoint: MIC ; result: 12.6 µM
N/C(=N\NC(CC(=O)c1ccc(Cl)c(Cl)c1)c1ccccn1)c1ccccn1 ; strain or isolate: 17 strains ; endpoint: MIC50 ; result: 16 µg/mL
CC1COc2c(C3(N)CC3)c(F)cc3c(=O)c(C(=O)O)cn1c23 ; strain or isolate: 18 strains ; endpoint: MIC90 ; result: >100 µg/mL
CCCCc1ccc(NC(=S)c2cccc([N+](=O)[O-])c2)cc1 ; strain or isolate: MY330/88 ; endpoint: MIC ; result: 32 µM
Cc1ccc(C(Cn2ccnc2)OCc2cccc3ccccc23)cc1 ; strain or isolate: CIP103317 ; endpoint: MIC ; result: 0.5 µg/mL
CC1(C)Nc2ccc(Cl)cc2C(=S)N1c1cccc(Cl)c1 ; strain or isolate: MY330/88 ; endpoint: MIC ; result: >250 µg/mL
COc1ccc2oc(=O)n(-c3cccc(Cl)c3)c(=O)c2c1 ; strain or isolate: CNCTC MY330/88 ; endpoint: MIC ; result: 125 µM
Cc1ccc2nc(SCc3ccc(Cl)cc3)[nH]c2c1 ; strain or isolate: MY330/88 ; endpoint: MIC ; result: 32 µM
CN1CCN(c2ccccc2NCc2ccc(Cl)cc2)CC1 ; strain or isolate: 103317 ; endpoint: MIC ; result: 97.8 µM
CCOC1Oc2ccccc2C(=O)/C1=C\Nc1ccc(C(=O)O)c(O)c1 ; strain or isolate: MY 80/72 ; endpoint: MIC ; result: 25 µg/mL
NC[C@@H]1O[C@H](O[C@H]2[C@@H](O)[C@H](O[C@@H]3[C@@H](O)[C@H](N)C[C@H](N)[C@H]3O[C@H]3O[C@H](CO)[C@@H](O)C[C@H]3N)O[C@@H]2CO)[C@H](N)[C@@H](O)[C@@H]1O[C@H]1O[C@H](CO)[C@@H](O)[C@H](O)[C@@H]1O ; strain or isolate: 10 strains ; endpoint: MIC ; result: 50 µg/mL
O=C(O)c1cnc(Cl)cn1 ; strain or isolate: 49601 ; endpoint: MIC ; result: >1024 µg/mL
CCOC(=O)c1ccc(-n2c(=O)oc3ccc(Cl)cc3c2=O)cc1 ; strain or isolate: CNCTC MY330/88 ; endpoint: MIC ; result: 32 µM
CC(C)N=C(N)/N=C(\N)NOCCCOc1ccc(Cl)c(Cl)c1 ; strain or isolate: 3404-4 ; endpoint: MIC ; result: 0.4 µg/mL
CCCCCCSc1cc(C(N)=S)cc(SCC)n1 ; strain or isolate: 80/72 ; endpoint: MIC ; result: 60 µM
CCCCCC(CC)OC(=O)c1cnc(Cl)cn1 ; strain or isolate: ATCC49601 ; endpoint: MIC ; result: 32 µg/mL
CCOC1Oc2ccccc2C(=O)/C1=C\Nc1cccc(C(=O)O)c1O ; strain or isolate: MY 80/72 ; endpoint: MIC ; result: 100 µg/mL
Clc1ccc(C(Cn2ccnc2)OC/C=C/c2ccccc2)c(Cl)c1 ; strain or isolate: CIP103317 ; endpoint: MIC ; result: 8 µg/mL
CCCCCCSc1cc(C(N)=S)cc(SCCCCC)n1 ; strain or isolate: 80/72 ; endpoint: MIC ; result: 125 µM
N/C(=N\NC(CC(=O)c1ccccc1)c1ccncc1)c1ccccn1 ; strain or isolate: 17 strains ; endpoint: MIC50 ; result: 64 µg/mL
Cc1c(CN2CCN(C)CC2)cc(-c2ccc(Cl)cc2)n1-c1ccc(Cl)cc1 ; strain or isolate: CIP103317 ; endpoint: MIC ; result: 0.4 µg/mL
COC(=O)c1cnccn1 ; strain or isolate: 101 ; endpoint: MIC ; result: >256 µg/mL
N/C(=N\NC(CC(=O)c1ccc(Cl)cc1)c1ccncc1)c1ccccn1 ; strain or isolate: 17 strains ; endpoint: MIC90 ; result: 32 µg/mL
Clc1ccc(C(Cn2ccnc2)OCc2cccc3ccccc23)cc1 ; strain or isolate: CIP103317 ; endpoint: MIC ; result: 1 µg/mL
Cc1cccc(C(=S)Nc2ccc(C(C)C)cc2)c1 ; strain or isolate: MY330/88 ; endpoint: MIC ; result: 62.6 µM
Clc1ccc(C(Cn2ccnc2)OCc2ccc(-c3ccccc3)cc2)cc1 ; strain or isolate: CIP103317 ; endpoint: MIC ; result: 0.5 µg/mL
O/N=C(\Cn1ccnc1)c1ccc(F)cc1 ; strain or isolate: 103317 ; endpoint: MIC ; result: 146 µM
CCCCCC(C)(CCCCC)OC(=O)c1cnc(Cl)cn1 ; strain or isolate: 101 ; endpoint: MIC ; result: >64 µg/mL
CC1COc2c(N3CCN(C)CC3)c(F)cc3c(=O)c(C(=O)O)cn1c23 ; strain or isolate: 20 strains ; endpoint: MIC ; result: >10 µg/mL
N/C(=N\N=C\c1ccc(Br)cc1)c1ccncc1 ; strain or isolate: Isoniazid/rifampicin/ofloxacin-resistant ; endpoint: MIC ; result: 64 µg/mL
CCCCc1ccc(NC(=S)c2ccccc2)cc1 ; strain or isolate: MY330/88 ; endpoint: MIC ; result: 62.5 µM
CCCCCCCCSc1cc(C(N)=S)cc(SCCCCCC)n1 ; strain or isolate: 80/72 ; endpoint: MIC ; result: 250 µM
N/C(=N\N=C\c1cccc(Br)c1)c1ccncc1 ; strain or isolate: Isoniazid/rifampicin/ofloxacin-resistant ; endpoint: MIC ; result: 16 µg/mL
COc1ccc2c(=O)n(-c3ccc(Cl)c(Cl)c3)c(=O)oc2c1 ; strain or isolate: CNCTC MY330/88 ; endpoint: MIC ; result: 32 µM
OCCN1CCN(CC/C=C2/c3ccccc3Sc3ccc(Cl)cc32)CC1 ; strain or isolate: T 10350 ; endpoint: MIC ; result: 25 µg/mL
CC(C)(OC(=O)c1cnc(Cl)cn1)c1ccccc1 ; strain or isolate: 101 ; endpoint: MIC ; result: 256 µg/mL
c1ccc(C(Cn2ccnc2)OCc2cccc3ccccc23)cc1 ; strain or isolate: 103317 ; endpoint: MIC ; result: 3.05 µM
COc1ccccc1/C=N/N=C(\N)c1ccncc1 ; strain or isolate: Isoniazid/rifampicin/ofloxacin-resistant ; endpoint: MIC ; result: 64 µg/mL
CC(C)c1ccc(NC(=S)c2cccc(Br)c2)cc1 ; strain or isolate: MY330/88 ; endpoint: MIC ; result: 62.5 µM
Clc1ccc(C(Cn2ccnc2)OC/C=C/c2ccccc2)cc1 ; strain or isolate: CIP103317 ; endpoint: MIC ; result: 1 µg/mL
O=c1oc2ccc(Br)cc2c(=O)n1-c1cccc(Cl)c1 ; strain or isolate: CNCTC MY330/88 ; endpoint: MIC ; result: 16 µM
N/C(=N\NC(CC(=O)c1cccc(Br)c1)c1ccccn1)c1ccccn1 ; strain or isolate: 17 strains ; endpoint: MIC50 ; result: 32 µg/mL
Clc1ccc(C(Cn2ccnc2)OCc2ccc(-c3ccccc3)cc2)c(Cl)c1 ; strain or isolate: CIP103317 ; endpoint: MIC ; result: 8 µg/mL
O=C(CCC(=O)Nc1ccc(Cl)c(Cl)c1)Nc1ccc(Cl)c(Cl)c1 ; endpoint: MIC ; result: 250 µM
Cc1ccc2nc(SCc3ccc([N+](=O)[O-])cc3)[nH]c2c1 ; strain or isolate: MY330/88 ; endpoint: MIC ; result: 8 µM
CCOC(=O)c1c(-c2ccccc2)c2ccc(Cl)cc2oc1=O ; read by: resazurin ; strain or isolate: ATCC 15769 ; endpoint: MIC90 ; result: >100 µg/mL
CC(C)OC1Oc2ccc([N+](=O)[O-])cc2C(=O)/C1=C\Nc1ccc(C(=O)O)c(O)c1 ; strain or isolate: MY 80/72 ; endpoint: MIC ; result: 50 µg/mL
Clc1ccc(CNc2cccc(N3CCOCC3)c2)cc1 ; strain or isolate: 103317 ; endpoint: MIC ; result: 50.1 µM
Cc1ccc(C(Cn2ccnc2)OCc2ccc(-c3ccccc3)cc2)cc1 ; strain or isolate: CIP103317 ; endpoint: MIC ; result: 4 µg/mL
CCCCCCCC(OC(=O)c1cnc(Cl)cn1)C(C)(C)C ; strain or isolate: ATCC49601 ; endpoint: MIC ; result: >256 µg/mL
Cc1ccc2nc(SCc3ccc(F)cc3)[nH]c2c1 ; strain or isolate: MY330/88 ; endpoint: MIC ; result: 32 µM
N/C(=N\NC(CC(=O)c1ccc(Cl)c(Cl)c1)c1cccnc1)c1ccccn1 ; strain or isolate: 17 strains ; endpoint: MIC90 ; result: 80 µg/mL
CCCCc1ccc(NC(=O)CCC(=O)Nc2ccc(CCCC)cc2)cc1 ; endpoint: MIC ; result: 63 µM
N/C(=N\NC(CC(=O)c1ccc(-c2ccccc2)cc1)c1ccncc1)c1ccccn1 ; strain or isolate: 17 strains ; endpoint: MIC90 ; result: 160 µg/mL
c1ccc(/C(Cn2ccnc2)=N\OCc2cccc3ccccc23)cc1 ; strain or isolate: 103317 ; endpoint: MIC ; result: 23.4 µM
CC[C@H]1OC(=O)[C@H](C)C(=O)[C@H](C)[C@@H](O[C@@H]2O[C@H](C)C[C@H](N(C)C)[C@H]2O)[C@](C)(OC)C[C@@H](C)C(=O)[C@H](C)[C@H]2N(CCCCn3cnc(-c4cccnc4)c3)C(=O)O[C@]12C ; strain or isolate: ATCC 25291 ; endpoint: MIC ; result: 5 µg/mL
Cc1cccc(C(=O)CC(N/N=C(\N)c2ccccn2)c2ccncc2)c1 ; strain or isolate: 17 strains ; endpoint: MIC90 ; result: 80 µg/mL
CN1CCN(c2cccc(NCc3ccc(Cl)cc3)c2)CC1 ; strain or isolate: 103317 ; endpoint: MIC ; result: 97.8 µM
OCCN1CCN(CC/C=C2\c3ccccc3Sc3ccc(C(F)(F)F)cc32)CC1 ; strain or isolate: T 10350 ; endpoint: MIC ; result: 25 µg/mL
N/C(=N\NC(CC(=O)c1cccc(Cl)c1)c1ccccn1)c1ccccn1 ; strain or isolate: 17 strains ; endpoint: MIC90 ; result: 160 µg/mL
CCCCCCCSc1cc(C(N)=O)cc(SCCCCCC)n1 ; strain or isolate: 80/72 ; endpoint: MIC ; result: >1000 µM
CCOC1Oc2ccc(Cl)cc2C(=O)/C1=C\Nc1cccc(C(=O)O)c1O ; strain or isolate: MY 80/72 ; endpoint: MIC ; result: 100 µg/mL
Cc1ccc(C(Cn2ccnc2)OCc2ccc(C(C)(C)C)cc2)cc1 ; strain or isolate: CIP103317 ; endpoint: MIC ; result: 2 µg/mL
CC(C)c1ccc(NC(=S)c2cccc(Cl)c2)cc1 ; strain or isolate: MY330/88 ; endpoint: MIC ; result: 62.5 µM